Results of unrelated studies side by side (data: NIAID ChemDB).

Common to all: growth or infection tests; species: HIV-1; read-out: inhibition

Inhibition is in % at the dose shown (toxicity tests: loss of growth or viability). Rows are shuffled and stem from different studies. An empty or dashed field is not shown.

| compound | strain | tested at | changes | cell line | read by | conditions | result |
|---|---|---|---|---|---|---|---|
| C[C@@H]1CN(C(=O)c2ccccc2)CCN1C(=O)C(=O)c1c[nH]c2cccc(Br)c12 | - | 10 µM | - | HeLa + HELA CD4+/CCR5 | luciferase | - | 40% |
| CCc1nc2cc3ccccc3cc2cc1C(=O)N[C@@H](C/C=C\C[C@H](NC(=O)c1cc2cc3ccccc3cc2nc1CC)C(=O)N1CCC[C@H]1C(=O)N[C@@H](Cc1ccccc1)C(=O)NCCCN)C(=O)N1CCC[C@H]1C(=O)N[C@@H](Cc1ccccc1)C(=O)NCCCN | - | 20 µM | - | HEK293T + TZM-bl | luciferase | pseudotyped | >90% |
| C[n+]1cn(-c2cn(C(O)CP(=O)(O)O)nn2)c(=O)[nH]c1=O | IIIB | 100 µM | - | CEM | - | - | 0% |
| Cc1cccc(CSc2nnc(-c3c[nH]c4c(-c5ccccc5)cccc4c3=O)o2)c1 | NL4-3 | 100 µM | - | HeLa | p24 / ELISA | - | 21% |
| O=c1ccn(-c2cn(C(O)P(=O)(O)O)nn2)c(=O)[nH]1 | IIIB | 100 µM | - | CEM | - | - | 0% |
| CC(C)c1cnc(C2C=C(c3cccc(Cl)c3)N=C(N)S2)cn1 | NL4-3 | 10 µg/mL | - | TZM-bl | p24 / ELISA / antigen | - | 64% |
| Cc1cn([C@H]2CC(O)[C@@H](COP(=O)(O)O)O2)c(=O)nc1N1CCCC1 | IIIB | 10 µM | - | CEM-SS | visual reading / cell fusion | - | 44.1% |
| O=C(C(=O)N1CCN(C(=O)c2ccccc2)CC1)c1c[nH]c2c(OCC(F)(F)F)ccc(F)c12 | - | 10 µM | - | HeLa + HELA CD4+/CCR5 | luciferase | - | >98% |
| C[n+]1cn(-c2cn(C(O)P(=O)(O)O)nn2)c(=O)[nH]c1=O | IIIB | 100 µM | - | CEM | - | - | 0% |
| O=C(C(=O)N1CCN(C(=O)c2ccccc2)CC1)c1c[nH]c2c(Br)cc(F)cc12 | - | 10 µM | - | HeLa + HELA CD4+/CCR5 | luciferase | - | 75% |
| O=c1nc(N2CCCC2)ccn1[C@H]1CC(O)[C@@H](COP(=O)(O)O)O1 | IIIB | 10 µM | - | CEM-SS | visual reading / cell fusion | - | 0% |
| COc1cccc2c(C(=O)C(=O)N3CCN(C(=O)c4ccccc4)C[C@@H]3C)c[nH]c12 | - | 10 µM | - | HeLa + HELA CD4+/CCR5 | luciferase | - | >98% |
| CC#C[C@]1(O)CC[C@H]2[C@@H]3CCC4=CC(=O)CCC4=C3[C@@H](c3ccc(N(C)C)cc3)C[C@@]21C | NL4-3-EGFP | 0.5 µM | - | CEMx174 + CEM | GFP | - | 49.1% |
| O=c1c(-c2nnc(SCc3ccc(Cl)cc3)o2)c[nH]c2c(-c3ccccc3)cccc12 | NL4-3 | 100 µM | - | HeLa | p24 / ELISA | - | 33% |
| C=C(C)[C@@H]1CC[C@]2(C(=O)O)CC[C@]3(C)C(CCC4[C@@]5(C)CC[C@H](OC(=O)CN(OC)C6O[C@H](CO)[C@H](O)[C@H](O)[C@@H]6O)C(C)(C)C5CC[C@]43C)C12 | IIIB | 10 µM | - | - | cytopathic effect | - | 5% |
| Cc1cc(C#N)cc(C)c1Oc1nc(Nc2ccc(C#N)cc2)nc(N)c1Br | NL4-3 | 10 µg/mL | - | TZM-bl | p24 / ELISA / antigen | - | 100% |
| O=c1nc(N2C[C@H](O)[C@@H](O)C2)ccn1[C@H]1CC[C@@H](CO)O1 | IIIB | 10 µM | - | CEM-SS | visual reading / cell fusion | - | 2% |
| COC(=O)c1c(C(=O)OC)c2n(c1C)C(c1ccc(OC)cc1)SC2 | IIIB | 1 µM | - | PBL | p24 / ELISA | - | 5% |
| C=C(C)[C@@H]1CC[C@]2(C(=O)O)CC[C@]3(C)C(CCC4[C@@]5(C)CC[C@H](OC(=O)CN(OC)C6O[C@@H](C)[C@@H](O)[C@@H](O)[C@@H]6O)C(C)(C)C5CC[C@]43C)C12 | IIIB | 10 µM | - | - | cytopathic effect | - | 61% |
| O=c1c(-c2nnc(SCc3cccc(F)c3)o2)c[nH]c2c(-c3ccccc3)cccc12 | NL4-3 | 100 µM | - | HeLa | p24 / ELISA | - | 31% |
| Cc1cn([C@H]2CC(O)[C@@H](CO)O2)c(=O)nc1N1CCCC1 | IIIB | 10 µM | - | CEM-SS | XTT / cell fusion | - | 0% |
| CCCCCCCCCCCCCCCC(=O)OC[C@H]1O[C@@H](n2cnc3c(N)ncnc32)[C@@H]1CO | - | 3 µg/mL | - | MT-4 | antigen | - | 93% |
| COC(=O)c1cn2c(c1C(=O)OC)Cc1cc3c(cc1C2)OCO3 | IIIB | 10 µM | - | PBL | p24 / ELISA | - | 5% |
| C=C(C)[C@@H]1CC[C@]2(C(=O)O)CC[C@]3(C)C(CCC4[C@@]5(C)CC[C@H](OC(=O)CN(OC)[C@H]6OC[C@H](O)[C@@H](O)[C@@H]6O)C(C)(C)C5CC[C@]43C)C12 | IIIB | 10 µM | - | - | cytopathic effect | - | 43% |
| CCN(CC)CCCC(C)Nc1ccnc2cc(Cl)ccc12 | - | 100 µM | - | U-937 | RT activity | - | 66.12% |
| C=C(C)[C@@H]1CC[C@]2(C(=O)O)CC[C@]3(C)C(CCC4[C@@]5(C)CC[C@H](OC(=O)CN(OC)C6OC[C@@H](O)[C@@H](O)[C@@H]6O)C(C)(C)C5CC[C@]43C)C12 | IIIB | 10 µM | - | - | cytopathic effect | - | 12% |
| O=c1ccnc(N2CCC[C@H]2CO)[nH]1 | IIIB | 10 µM | - | CEM-SS | visual reading / cell fusion | - | 4.1% |
| COC(=O)c1c(C(=O)OC)c2n(c1C)Cc1ccccc1C2 | IIIB | 10 µM | - | PBL | p24 / ELISA | - | 4% |
| C=C1[C@H](n2cnc3c(N)ncnc32)O[C@@H]1CO | - | 10 µg/mL | - | MT-4 | antigen | - | 97% |
| Nc1ncnc2c1ncn2COCCOP(=O)(O)O | - | 300 µM | - | SupT1 + Sup-T1 | RT activity | - | 45% |
| Nc1ncnc2c1ncn2Cc1cn(C(O)CP(=O)(O)O)nn1 | IIIB | 100 µM | - | CEM | - | - | 0% |
| O=C(O)c1cc(Cc2ccc(O)c(C(=O)O)c2)ccc1O | IIIB | 350 µM | - | CEM | cytopathic effect / XTT | - | 0% |
| O=c1c(-c2nnc(SCc3ccccc3F)o2)c[nH]c2c(-c3ccccc3)cccc12 | NL4-3 | 100 µM | - | HeLa | p24 / ELISA | - | 48% |
| OC[C@@H]1CC[C@H](n2cnc3c(N4C[C@H](O)[C@@H](O)C4)ncnc32)O1 | IIIB | 10 µM | - | CEM-SS | visual reading / cell fusion | - | 3.6% |
| C/C(=C(/CCO)SS/C(CCO)=C(\C)N(C=O)Cc1cnc(C)nc1N)N(C=O)Cc1cnc(C)nc1N | LAV-1 | 250 µM | - | MT-4 | - | - | 98% |
| C=C(C)[C@@H]1CC[C@]2(C(=O)O)CC[C@]3(C)C(CCC4[C@@]5(C)CC[C@H](OC(=O)CN(OC)[C@H]6O[C@H](CO)[C@@H](O)[C@H](OC)[C@H]6O)C(C)(C)C5CC[C@]43C)C12 | IIIB | 10 µM | - | - | cytopathic effect | - | 23% |
| O=C(C(=O)N1CCN(C(=O)c2cccc(Cl)c2F)CC1)c1c[nH]c2ccccc12 | BRU | 10 µM | - | MT-2 | RT activity | - | 91.2% |
| Nc1ncnc2c1ncn2COCCOP(=O)(O)O[C@@H]1C[C@@H](COP(=O)(O)O[C@@H]2C[C@@H](COP(=O)(O)O[C@@H]3C[C@@H](CO)O[C@H]3n3cnc4c(NCc5ccccc5)ncnc43)O[C@H]2n2cnc3c(N)ncnc32)O[C@H]1n1cnc2c(N)ncnc21 | - | 1 µM | - | SupT1 + Sup-T1 | syncytia | - | 41% |
| C=C(C)[C@@H]1CC[C@]2(C(=O)O)CC[C@]3(C)C(CCC4[C@@]5(C)CC[C@H](OC(=O)CN(OC)[C@H]6O[C@H](CO)[C@@H](O)[C@H](O)[C@@H]6NC(C)=O)C(C)(C)C5CC[C@]43C)C12 | IIIB | 10 µM | - | - | cytopathic effect | - | 4% |
| CCOP(=O)(Cn1cc(C2N=C3C(N)=NC=NC3N2C)nn1)OCC | IIIB | 100 µM | - | CEM | - | - | 0% |
| [N-]=[N+]=N[C@H]1[C@H](n2cnc3c(N)ncnc32)O[C@@H]1CO | - | 3 µg/mL | - | MT-4 | antigen | - | <10% |
| COC(=O)c1c[nH]c(Cc2ccccc2)c1C(=O)OC | IIIB | 10 µM | - | PBL | p24 / ELISA | - | 3% |
| Nc1ncnc2c1ncn2COCCOP(=O)([O-])O[C@@H]1C[C@@H](COP(=O)([O-])O[C@@H]2C[C@@H](COP(=O)([O-])O[C@@H]3C[C@@H](CO)O[C@H]3n3cnc4c(N)[n+](Cc5ccccc5)cnc43)O[C@H]2n2cnc3c(N)ncnc32)O[C@H]1n1cnc2c(N)ncnc21 | - | 10 µM | - | SupT1 + Sup-T1 | syncytia | - | 81% |
| Cc1ccccc1C1=CC(c2cnc(C(C)C)cn2)SC(N)=N1 | NL4-3 | 10 µg/mL | - | TZM-bl | p24 / ELISA / antigen | - | 28% |
| Cc1[nH]c2ccccc2c1C(=O)C(=O)N1CCN(C(=O)c2ccccc2)CC1 | BRU | 10 µM | - | MT-2 | RT activity | - | 54.9% |
| CC(C)(C)NC(=O)[C@@H]1CCCN1C(=O)[C@@H](O)[C@H](Cc1ccccc1)NC(=O)[C@H](CC(N)=O)NC(=O)OCc1ccccc1 | pNL432(PR-I84V) | 20 µM | PR-I84V | MOLT-4 | RT activity | - | 41% |
| CCCCC(=O)OC[C@H]1O[C@@H](n2cnc3c(N)ncnc32)[C@@H]1CO | - | 100 µg/mL | - | MT-4 | antigen | - | 99.9% |
| O=c1oc2cc(O)cc(O)c2c(O)c1-c1coc2c1c(=O)oc1cc(O)cc(O)c12 | IIIB | 10 µM | - | MT-4 | MTT | - | 92% |
| O=c1c(-c2nnc(SCc3cccc(Cl)c3)o2)c[nH]c2c(-c3ccccc3)cccc12 | NL4-3 | 100 µM | - | HeLa | p24 / ELISA | - | 13% |
| CCn1c(C)c(C(=O)NC)c(C(=O)NC)c1Cc1ccccc1 | IIIB | 10 µM | - | PBL | p24 / ELISA | - | 0% |
| CC(C)C[C@H](NC(=O)c1ccc(NC(=O)[C@H](Cc2c[nH]c3ccccc23)NC(=O)CCC(=O)NCCCCCCCCCCOCCNC(=O)CCC(=O)O)c(OCCc2c[nH]c3ccccc23)c1)C(=O)O | NL4-3 | 50 µM | - | TZM-bl | luciferase / cell fusion | - | 7% |
| O=C(C(=O)N1CCN(C(=O)c2ccccc2)CC1)c1c[nH]c2c(Br)ccc(OC(F)(F)F)c12 | - | 10 µM | - | HeLa + HELA CD4+/CCR5 | luciferase | - | >98% |
| CC(C)c1cnc(C2C=C(c3cccc(O)c3)N=C(N)S2)cn1 | NL4-3 | 10 µg/mL | - | TZM-bl | p24 / ELISA / antigen | - | 51% |

The first 4 rows once more:

compound,strain,tested at,changes,cell line,read by,conditions,result
C[C@@H]1CN(C(=O)c2ccccc2)CCN1C(=O)C(=O)c1c[nH]c2cccc(Br)c12,-,10 µM,-,HeLa + HELA CD4+/CCR5,luciferase,-,40%
CCc1nc2cc3ccccc3cc2cc1C(=O)N[C@@H](C/C=C\C[C@H](NC(=O)c1cc2cc3ccccc3cc2nc1CC)C(=O)N1CCC[C@H]1C(=O)N[C@@H](Cc1ccccc1)C(=O)NCCCN)C(=O)N1CCC[C@H]1C(=O)N[C@@H](Cc1ccccc1)C(=O)NCCCN,-,20 µM,-,HEK293T + TZM-bl,luciferase,pseudotyped,>90%
C[n+]1cn(-c2cn(C(O)CP(=O)(O)O)nn2)c(=O)[nH]c1=O,IIIB,100 µM,-,CEM,-,-,0%
Cc1cccc(CSc2nnc(-c3c[nH]c4c(-c5ccccc5)cccc4c3=O)o2)c1,NL4-3,100 µM,-,HeLa,p24 / ELISA,-,21%